Article PMC7287799 (Molecules, 2020)

Target: CLas IMPDHΔ98-201 (Candidatus Liberibacter asiaticus, UniProt C6XG59, DEL98-201/INS97G)
Details: for reversibility of inhibition: extended measurement time, no exponential enzyme decay observed; for type of inhibition against IMP: varying IMP at fixed NAD+

Structure (SMILES) | reversibility of inhibition | type of inhibition against IMP | effect on CLas IMPDHΔ98-201 enzyme activity
O=[N+]([O-])C(Br)(CO)CO | reversible | noncompetitive | 
NC(=O)c1ncn([C@@H]2O[C@H](CO)[C@@H](O)[C@H]2O)n1 |  |  | almost no effect
O=c1c2ccccc2[se]n1-c1ccccc1 | reversible |  | 
CCN(CC)C(=S)SSC(=S)N(CC)CC | reversible | noncompetitive | 
S=c1[nH]cnc2nc[nH]c12 |  | uncompetitive | 
